A mixed list of measured activities; the numbers were collected in NIAID ChemDB.

Common to all: growth or infection tests; agent: Mycobacterium avium intracellulare; read-out: MIC

Neighbouring rows are from separate reports.

| smiles | strain or isolate | value |
|---|---|---|
| CC[C@H]1OC(=O)[C@H](C)[C@@H](O[C@H]2C[C@@](C)(OC)[C@@H](OC(C)=O)[C@H](C)O2)[C@H](C)[C@@H](O[C@@H]2O[C@H](C)C[C@H](N(C)C)[C@H]2OC(=O)NNCc2ccc([N+](=O)[O-])cc2)C(C)(O)C[C@@H](C)/C(=N\OCCCC2CCCCC2)[C@H](C)[C@@H](O)[C@]1(C)O | 20066 (clarithromycin-susceptible) | 0.78 µg/mL |
| CN(C)CCCN1c2ccccc2Sc2ccc(Cl)cc21 | R 1631 | 25 µg/mL |
| Cc1onc(-c2ccccc2Cl)c1C(=O)N[C@@H]1C(=O)N2[C@@H]1SC(C)(C)[C@@H]2C(=O)O | CIPT 140310031 | 75 µg/mL |
| CC[C@H]1OC(=O)[C@H](C)[C@@H](O[C@H]2C[C@@](C)(OC)[C@@H](OC(C)=O)[C@H](C)O2)[C@H](C)[C@@H](OC2O[C@H](C)C[C@H](N(C)C)[C@H]2OC(=O)NC)C(C)(O)C[C@@H](C)/C(=N\OCCCC2CCCCC2)[C@H](C)[C@@H](O)[C@]1(C)O | 20075 | 3.13 µg/mL |
| CC[C@H]1OC(=O)[C@H](C)[C@@H](OC2C[C@@](C)(OC)[C@@H](O)[C@H](C)O2)[C@H](C)[C@@H](O[C@@H]2O[C@H](C)C[C@H](N(C)C)[C@H]2O)C(C)(O)C[C@@H](C)/C(=N\OCCCCCc2ccccc2)[C@H](C)[C@@H](O)[C@]1(C)O | 20066 (clarithromycin-susceptible) | 3.13 µg/mL |
| C[C@@H]1CN(c2c(F)c(N)c3c(=O)c(C(=O)O)cn(C4CC4)c3c2F)C[C@H](C)N1 | N-919 (HIV-) | 0.5 µg/mL |
| CC[C@H]1OC(=O)[C@H](C)[C@@H](O[C@H]2C[C@@](C)(OC)[C@@H](OC(C)=O)[C@H](C)O2)[C@H](C)[C@@H](O[C@@H]2O[C@H](C)C[C@H](N(C)C)[C@H]2O)C(C)(O)C[C@@H](C)/C(=N\OCCc2ccccc2)[C@H](C)[C@@H](O)[C@]1(C)O | 20066 (clarithromycin-susceptible) | 1.56 µg/mL |
| CC[C@H]1OC(=O)[C@H](C)[C@@H](O[C@H]2C[C@@](C)(OC)[C@@H](O)[C@H](C)O2)[C@H](C)[C@@H](O[C@@H]2O[C@H](C)C[C@H](N(C)C)[C@H]2O)[C@](C)(OC)C[C@@H](C)C(=O)[C@H](C)[C@@H](O)[C@]1(C)O | N-486 (HIV-) | 2 µg/mL |
| OCCN1CCN(CC/C=C2/c3ccccc3Sc3ccc(C(F)(F)F)cc32)CC1 | ATCC 23432 | 6.25 µg/mL |
| CCCCCCO/N=C1\[C@H](C)CC(C)(O)[C@H](O[C@@H]2O[C@H](C)C[C@H](N(C)C)[C@H]2O)[C@@H](C)[C@H](O[C@H]2C[C@@](C)(OC)[C@@H](OC(C)=O)[C@H](C)O2)[C@@H](C)C(=O)O[C@H](CC)[C@@](C)(O)[C@H](O)[C@H]1C | 20066 (clarithromycin-susceptible) | 1.56 µg/mL |
| OCCN1CCN(CCC=C2c3ccccc3Sc3ccc(Cl)cc32)CC1 | R 8588 | 25 µg/mL |
| CO[C@H]1/C=C/O[C@@]2(C)Oc3c(C)c(O)c4c(O)c(c5c(c4c3C2=O)NC2(CCN(CC(C)C)CC2)N=5)=NC(=O)/C(C)=C\C=C\[C@H](C)[C@H](O)[C@@H](C)[C@@H](O)[C@@H](C)[C@H](OC(C)=O)[C@@H]1C | 1023 | 0.25 µg/mL |
| CN[C@@H]1[C@H](O[C@H]2[C@H](O[C@H]3[C@H](O)[C@@H](O)[C@H](N=C(N)N)[C@@H](O)[C@@H]3N=C(N)N)O[C@@H](C)[C@]2(O)C=O)O[C@@H](CO)[C@H](O)[C@H]1O | CIPT 140310030 | >50 µg/mL |
| CCNC(=O)O[C@H]1C(O[C@@H]2[C@@H](C)[C@H](O[C@H]3C[C@@](C)(OC)[C@@H](OC(C)=O)[C@H](C)O3)[C@@H](C)C(=O)O[C@H](CC)[C@@](C)(O)[C@H](O)[C@@H](C)/C(=N/OCCCC3CCCCC3)[C@H](C)CC2(C)O)O[C@H](C)C[C@@H]1N(C)C | 20067 | 6.25 µg/mL |
| CO[C@H]1/C=C/O[C@@]2(C)Oc3c(C)c(O)c4c(=O)c(c5oc6cc(N7CCN(CC(C)C)CC7)cc(=O)c6nc5c4c3=C2O)NC(=O)/C(C)=C\C=C\[C@H](C)[C@H](O)[C@@H](C)[C@@H](O)[C@@H](C)[C@H](OC(C)=O)[C@@H]1C | N-551 (HIV-) | ≤0.0125 µg/mL |
| CCCCCNC(=O)O[C@H]1C(O[C@@H]2[C@@H](C)[C@H](O[C@H]3C[C@@](C)(OC)[C@@H](OC(C)=O)[C@H](C)O3)[C@@H](C)C(=O)O[C@H](CC)[C@@](C)(O)[C@H](O)[C@@H](C)/C(=N/OCCCC3CCCCC3)[C@H](C)CC2(C)O)O[C@H](C)C[C@@H]1N(C)C | 20066 | 0.1 µg/mL |
| NC[C@H]1O[C@H](O[C@H]2[C@H](O)[C@@H](O[C@H]3O[C@H](CO)[C@@H](O)[C@H](N)[C@H]3O)[C@H](N)C[C@@H]2N)[C@H](O)[C@@H](O)[C@@H]1O | CIPT 140310001 | 10 µg/mL |
| CC[C@H]1OC(=O)[C@H](C)[C@@H](O[C@H]2C[C@@](C)(OC)[C@@H](OC(C)=O)[C@H](C)O2)[C@H](C)[C@@H](OC2O[C@H](C)C[C@H](N(C)C)[C@H]2OC(N)=O)C(C)(O)C[C@@H](C)/C(=N\OCCCC2CCCCC2)[C@H](C)[C@@H](O)[C@]1(C)O | 20067 | 1.56 µg/mL |
| CC[C@H]1OC(=O)[C@H](C)[C@@H](O[C@H]2C[C@@](C)(OC)[C@@H](OC(C)=O)[C@H](C)O2)[C@H](C)[C@@H](O[C@@H]2O[C@H](C)C[C@H](N(C)C)[C@H]2O)C(C)(O)C[C@@H](C)/C(=N\OCCCCOc2ccccc2)[C@H](C)[C@@H](O)[C@]1(C)O | 20066 (clarithromycin-susceptible) | 1.56 µg/mL |
| CC1(C)S[C@@H]2[C@H](NC(=O)C(C(=O)O)c3ccccc3)C(=O)N2[C@H]1C(=O)O | CIPT 140310019 | 25 µg/mL |
| CC[C@H]1OC(=O)[C@H](C)[C@@H](O[C@H]2C[C@@](C)(OC)[C@@H](OC(C)=O)[C@H](C)O2)[C@H](C)[C@@H](OC2O[C@H](C)C[C@H](N(C)C)[C@H]2OC(=O)NCCCCCCCCCCCCCCN(C)C)C(C)(O)C[C@@H](C)/C(=N\OCCCC2CCCCC2)[C@H](C)[C@@H](O)[C@]1(C)O | 20067 | 0.78 µg/mL |
| CC(=O)NC[C@H]1CN(c2ccc(N3CCN(c4ccc([N+](=O)[O-])s4)CC3)c(F)c2)C(=O)O1 | ATCC35761 | <0.12 µg/mL |
| CC[C@H]1OC(=O)[C@H](C)[C@@H](OC(C)=O)[C@H](C)[C@@H](O[C@@H]2O[C@H](C)C[C@H](N(C)C)[C@H]2O)C(C)(O)C[C@@H](C)/C(=N\OCCCOc2ccccc2)[C@H](C)[C@@H](O)[C@]1(C)O | 20066 (clarithromycin-susceptible) | 50 µg/mL |
| CO[C@H]1/C=C/O[C@@]2(C)Oc3c(C)c(O)c4c(O)c(c5c(c4c3C2=O)NC2(CCN(CC(C)C)CC2)N=5)=NC(=O)/C(C)=C\C=C\[C@H](C)[C@H](O)[C@@H](C)[C@@H](O)[C@@H](C)[C@H](OC(C)=O)[C@@H]1C | N-897 (HIV-) | 0.125 µg/mL |
| Clc1ccc2c(c1)nc1cc(Nc3ccccc3)c(=NC3CCCCC3)cc-1n2-c1ccccc1 | P39 | 2 µg/mL |
| COc1ccc2c(c1)N(C[C@H](C)CN(C)C)c1ccccc1S2 | R 6550 | 50 µg/mL |

Repeating the final 2 entries:

{"smiles": "Clc1ccc2c(c1)nc1cc(Nc3ccccc3)c(=NC3CCCCC3)cc-1n2-c1ccccc1", "strain or isolate": "P39", "value": "2 µg/mL"}
{"smiles": "COc1ccc2c(c1)N(C[C@H](C)CN(C)C)c1ccccc1S2", "strain or isolate": "R 6550", "value": "50 µg/mL"}